PubChem BioAssay AID435030 (The Scripps Research Institute Molecular Screening Center, 2010)
Only a part is listed here, and it is no random draw. Calls of active or inactive are those of the source. Rule as the data show it: active = inhibition above about 12%; inactive = the rest.

Test: growth inhibition of E. coli expressing H. pylori AddAB, primary screen, AddAB inhibitor project, absorbance (AID 435030);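 also: 0% = vehicle wells of infected cells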
Conditions: at 11.9 µM, active compounds read high
For `CCc1ccc(OP(C)(=O)Nc2cccnc2)cc1` (stereo not drawn), the inhibition was inactive: -0.17%.
In the case of `CCN(CC)CC(O)COC(=O)C(O)(c1ccccc1)C1CCCCC1` (stereo not drawn), the inhibition is reported as inactive: 1.93%.
For `COc1ccc(OP(C)(=O)Nc2ccc(Br)cc2)cc1` (stereo not drawn), the inhibition was inactive: 0.34%.
With `CN(C)C(=O)c1c([N+](=O)[O-])cc([N+](=O)[O-])cc1[N+](=O)[O-]` the inhibition was inactive: 1.2%.
In the case of `CC(C)(C)c1ccc(OP(C)(=O)O)cc1`, the inhibition is reported as inactive: 0.76%.
For `COc1ccccc1OP(C)(=O)Nc1ccccc1Br` (stereo not drawn), the inhibition was inactive: -1.54%.
In the case of `CP(=O)(Nc1ccc(Cl)cc1)Oc1ccc(F)cc1` (stereo not drawn), the inhibition is reported as inactive: 1.12%.
With `COc1ccc(OP(C)(=O)Nc2ccccn2)cc1` (stereo not drawn) the inhibition was inactive: 1.43%.
For `CN(C)CCOC(=O)C(O)(c1ccccc1)C1CCCC1` (stereo not drawn), the inhibition was inactive: 0.26%.
With `COc1ccccc1OP(C)(=O)Nc1ccc(Br)cc1` (stereo not drawn) the inhibition was inactive: -0.17%.
For `CP(=O)(Nc1ccccn1)Oc1ccccc1` (stereo not drawn), the inhibition was inactive: -0.68%.
In the case of `COc1ccccc1OP(C)(=O)Nc1ccc(C)cc1C` (stereo not drawn), the inhibition is reported as inactive: 1.72%.
In the case of `CCc1ccc(OP(C)(=O)O)cc1`, the inhibition is reported as inactive: 0.81%.
With `O=[N+]([O-])c1cc([N+](=O)[O-])c(Nc2ccccn2)c([N+](=O)[O-])c1` the inhibition was inactive: 0.17%.
In the case of `Cc1c(NP(C)(=O)Oc2ccc(C(C)C)cc2)c(=O)n(-c2ccccc2)n1C` (stereo not drawn), the inhibition is reported as inactive: 2.31%.
With `COc1ccccc1OP(C)(=O)Nc1ccc(C)c(C)c1` (stereo not drawn) the inhibition was inactive: 0%.
In the case of `COc1ccc(OP(C)(=O)Nc2ccccc2Br)cc1` (stereo not drawn), the inhibition is reported as inactive: 0.26%.
With `Cc1cc(C)cc(OP(C)(=O)Nc2cccc(C(F)(F)F)c2)c1` (stereo not drawn) the inhibition was inactive: 1.99%.
For `CP(=O)(OCCOc1ccccc1)OCCOc1ccccc1`, the inhibition was inactive: -0.76%.
In the case of `CP(=O)(Nc1ccc(Cl)cc1Cl)Oc1ccccc1` (stereo not drawn), the inhibition is reported as inactive: -0.6%.
For `Cc1nc2ccc3ccccc3c2o1.O=[N+]([O-])c1cc([N+](=O)[O-])c(O)c([N+](=O)[O-])c1`, the inhibition was inactive: 0.4%.
For `O=[N+]([O-])c1ccc2c(c1)C=Nc1ccccc1O2`, the inhibition was inactive: -0.33%.
With `CC(C)(C)c1ccc(OP(C)(=O)Nc2ccc(SC(F)(F)F)cc2)cc1` (stereo not drawn) the inhibition was inactive: 0.95%.
With `Cc1cccc(C)c1OP(C)(N)=O` (stereo not drawn) the inhibition was inactive: 1.03%.
For `O=[N+]([O-])c1cc([N+](=O)[O-])c(Nc2cccnc2)c([N+](=O)[O-])c1`, the inhibition was inactive: 3.73%.
With `Cc1cc(C)cc(OP(C)(N)=O)c1` (stereo not drawn) the inhibition was inactive: 0.08%.
For `COc1ccccc1OP(C)(=O)Nc1cc(Cl)ccc1C` (stereo not drawn), the inhibition was inactive: 1.03%.
With `COc1ccc(OP(C)(=O)Nc2cccc(F)c2)cc1` (stereo not drawn) the inhibition was inactive: 1.82%.
In the case of `COc1ccccc1OP(C)(=O)Nc1ccc(C)cc1` (stereo not drawn), the inhibition is reported as inactive: -4.65%.
For `Cc1ccc(NP(C)(=O)Oc2ccccc2)c(C)c1` (stereo not drawn), the inhibition was inactive: 0.85%.
In the case of `CCOC(=O)c1ccc(NP(C)(=O)Oc2ccccc2)cc1` (stereo not drawn), the inhibition is reported as inactive: 1.95%.
With `CCN(CC)CCCOC(=O)C(O)(c1ccccc1)c1ccccc1` the inhibition was inactive: 0.82%.
In the case of `CCc1ccc(OP(C)(=O)N2CCN(c3ccc([N+](=O)[O-])cc3)CC2)cc1` (stereo not drawn), the inhibition is reported as inactive: -1.2%.
For `CP(=O)(NC(=O)Nc1ccccc1)Oc1ccccc1` (stereo not drawn), the inhibition was inactive: 0.94%.
In the case of `Cc1cc(C)cc(OP(C)(=O)Nc2ccc(SC(F)(F)F)cc2)c1` (stereo not drawn), the inhibition is reported as inactive: 0.34%.
In the case of `Cc1cccc(C)c1OP(C)(=O)Nc1ccc(SC(F)(F)F)cc1` (stereo not drawn), the inhibition is reported as inactive: 3.69%.
In the case of `CP(=O)(Nc1ccc(SC(F)(F)F)cc1)Oc1ccc(Cl)cc1` (stereo not drawn), the inhibition is reported as inactive: 0.65%.
In the case of `CP(=O)(Oc1ccccc1)OC(c1ccccc1)C(F)(F)F` (stereo not drawn), the inhibition is reported as inactive: -0.73%.
For `CP(=O)(Nc1ccccn1)Oc1ccc(Cl)cc1` (stereo not drawn), the inhibition was inactive: 1.34%.
For `CCOC(=O)c1ccc(NP(C)(=O)Oc2ccc(OC)cc2)cc1` (stereo not drawn), the inhibition was inactive: 1.79%.
In the case of `O=[N+]([O-])c1cc([N+](=O)[O-])c(O)c([N+](=O)[O-])c1.c1ccc(Oc2ccncc2)cc1`, the inhibition is reported as inactive: 0%.
In the case of `CCOP(C)(=S)SCC(=O)NC(C)C(=O)O` (stereo not drawn), the inhibition is reported as inactive: 1.38%.
In the case of `CP(=O)(Nc1ccccc1Br)Oc1ccccc1` (stereo not drawn), the inhibition is reported as inactive: -0.09%.
With `COc1ccccc1OP(C)(=O)Nc1ccccc1` (stereo not drawn) the inhibition was inactive: -2.45%.
For `CP(=S)(Nn1cnnc1)Oc1ccccc1` (stereo not drawn), the inhibition was inactive: 0.16%.
In the case of `O=[N+]([O-])c1cc([N+](=O)[O-])c(Nc2nnnn2CCO)c([N+](=O)[O-])c1`, the inhibition is reported as inactive: 1.24%.
For `CC1=C2N=C(C=C3N=C(C(C)=C4[N-][C@@](C)([C@@H]5N=C1[C@](C)(CCC(=O)NC[C@@H](C)OP(=O)([O-])O[C@H]1[C@@H](O)[C@@H](n6cnc7cc(C)c(C)cc76)O[C@@H]1CO)[C@H]5CC(N)=O)[C@@](C)(CC(N)=O)[C@@H]4CCC(N)=O)[C@@](C)(CC(N)=O)[C@@H]3CCC(N)=O)C(C)(C)[C@@H]2CCC(N)=O.[C-]#N.[Co+3]`, the inhibition was inactive: -2.7%.
In the case of `CCOC(=O)C(CC)C1=NC(C)(C)Cc2ccccc21.O=[N+]([O-])c1cc([N+](=O)[O-])c(O)c([N+](=O)[O-])c1` (stereo not drawn), the inhibition is reported as inactive: -1.45%.
For `CP(=O)(Nc1ccc(SC(F)(F)F)cc1)Oc1ccccc1` (stereo not drawn), the inhibition was inactive: 0.81%.
In the case of `CCCOc1ccc(NP(C)(=O)Oc2ccc(Cl)cc2)cc1` (stereo not drawn), the inhibition is reported as inactive: 3.96%.
For `COc1ccccc1OP(C)(=O)Nc1c(C)cccc1C` (stereo not drawn), the inhibition was inactive: 3.4%.
With `CN1CCCCC1COC(=O)C1(O)c2ccccc2CCc2ccccc21` (stereo not drawn) the inhibition was inactive: 1.29%.
For `O=[N+]([O-])c1cc([N+](=O)[O-])c(-n2nnc3ccccc32)c([N+](=O)[O-])c1`, the inhibition was inactive: -0.66%.
In the case of `Cc1nc2ccc3ccccc3c2s1.O=[N+]([O-])c1cc([N+](=O)[O-])c(O)c([N+](=O)[O-])c1`, the inhibition is reported as inactive: -0.77%.
For `O=[N+]([O-])c1cc([N+](=O)[O-])c(-c2cnn(-c3ccccc3)c2)c([N+](=O)[O-])c1`, the inhibition was inactive: 0.86%.
In the case of `CCOC(=O)c1ccc(NP(C)(=O)Oc2cc(C)cc(C)c2)cc1` (stereo not drawn), the inhibition is reported as inactive: 0.33%.
In the case of `Cc1cc(C)cc(OP(C)(=O)Nc2ccc(C)cc2C)c1` (stereo not drawn), the inhibition is reported as inactive: -2.28%.
For `COc1ccccc1OP(C)(=O)Nc1cccc(Br)c1` (stereo not drawn), the inhibition was inactive: 2.47%.
For `Cc1ccc(C)c(NP(C)(=O)Oc2ccccc2)c1` (stereo not drawn), the inhibition was inactive: -0.09%.
With `CP(=O)(Nc1cccc(Br)c1)Oc1ccccc1` (stereo not drawn) the inhibition was inactive: 0.08%.
For `Cc1cc(C)cc(OP(C)(=O)Nc2ccccn2)c1` (stereo not drawn), the inhibition was inactive: 0.6%.
In the case of `O=C(O)c1cccc(Nc2c([N+](=O)[O-])cc([N+](=O)[O-])cc2[N+](=O)[O-])c1`, the inhibition is reported as inactive: 0.43%.
With `CC1=NCCc2c1[nH]c1ccccc21.O=[N+]([O-])c1cc([N+](=O)[O-])c(O)c([N+](=O)[O-])c1` the inhibition was inactive: 1.06%.
